From ChEMBL document CHEMBL3232793, “Fused heterocyclic compounds bearing bridgehead nitrogen as potent HIV-1 NNRTIs. Part 1: design, synthesis and biological evaluation of novel 5,7-disubstituted pyrazolo[1,5-a]pyrimidine derivatives” (Bioorg Med Chem, 2014)

Target: Human immunodeficiency virus type 1 reverse transcriptase (Human immunodeficiency virus 1, UniProt Q72547)
Experiment: Inhibition of recombinant HIV1 reverse transcriptase assessed as inhibition of biotin-dUTP incorporation in to poly [A] x oligo[dT]15 by ELISA
Method in brief: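 Colorimetric kit (Roche) ELISA. Homopolymer template/primer bound to the microplate, with biotin-dUTP as the labelled nucleotide and 4 ng recombinant HIV-1 RT per well. Compounds tested at several concentrations.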

How did the IC50 turn out when `Cc1cc(C#N)cc(C)c1Oc1nc(Nc2ccc(C#N)cc2)nc(N)c1Br` [ETRAVIRINE] was run?
Its IC50 is 83 nM.
